Experimental data as given in PMC7392676 (BMC Microbiology, 2020).
Like-named read-outs stand apart in the source and are kept apart here.

Key:
[1] = test system: Xanthomonas axonopodis pv. vesicatoria; settings: cited from earlier work
Xff strain Temecula [2] = test system: Xff strain Temecula
Erwinia amylovora = settings: cited from earlier work
Xff strain Temecula [3] = assay type: cell-based, Xylella fastidiosa subsp. fastidiosa
[4] = test system: Pseudomonas syringae pv. syringae; settings: cited from earlier work

Compound: CC[C@H](C)[C@H](NC(=O)[C@H](CC(C)C)NC(=O)[C@H](C)NC(=O)[C@@H]1CCCN1C(=O)[C@H](CC(C)C)NC(=O)CNC(=O)[C@@H](NC(=O)[C@@H](NC(=O)[C@H](C)NC(=O)[C@@H]1CCCN1C(=O)CNC(=O)[C@H](C)NC(=O)[C@H](CC(C)C)NC(=O)[C@H](Cc1ccc(O)cc1)NC(=O)[C@H](CCCCN)NC(=O)[C@H](CC(C)C)NC(=O)[C@@H](NC(=O)[C@H](CCCCN)NC(=O)[C@H](CCCCN)NC(=O)[C@H](Cc1ccccc1)NC(=O)[C@H](CC(C)C)NC(=O)[C@H](CCCCN)NC(=O)[C@@H](N)CCCCN)[C@@H](C)CC)[C@@H](C)O)[C@@H](C)O)C(=O)N[C@@H](CO)C(=O)N[C@@H](Cc1c[nH]c2ccccc12)C(=O)O [BP171]
- MIC Xav [1]: 2.5 to 5.0 µM
- Xff culturable cells after treatment (in words) (Xff strain Temecula [2]): reached the detection limit
- activity class against Xff at different peptide concentrations (Xff strain Temecula [2]): highly active
- minimal bactericidal concentration (MBC) (Xff strain Temecula [2]): 5 to 10 µg/mL
- minimal bactericidal concentration (MBC) (Xff strain Temecula [2]; 48 h): 1.5 to 3.1 µM
- MIC Ea (Erwinia amylovora): 2.5 to 5.0 µM
- Xff viable cells after treatment (in words) (Xff strain Temecula [3]): reached the detection limit
- activity class against Xff at different peptide concentrations (Xff strain Temecula [3]): highly active
- classification of activity against Xf (discussion) (Xff strain Temecula [3]): highly active
- MIC Psa [4]: 1.25 to 2.5 µM

Compound: CC[C@H](C)[C@H](NC(=O)CNC(=O)[C@H](C)NC(=O)[C@@H]1CCCN1C(=O)CNC(=O)[C@H](C)NC(=O)[C@H](CC(C)C)NC(=O)[C@H](Cc1ccc(O)cc1)NC(=O)[C@H](CCCCN)NC(=O)[C@H](CC(C)C)NC(=O)[C@@H](NC(=O)[C@H](CCCCN)NC(=O)[C@H](CCCCN)NC(=O)[C@H](Cc1ccccc1)NC(=O)[C@H](CC(C)C)NC(=O)[C@H](CCCCN)NC(=O)[C@@H](N)CCCCN)[C@@H](C)CC)C(=O)NCC(=O)N[C@@H](CCCCN)C(=O)N[C@@H](Cc1ccccc1)C(=O)N[C@@H](CC(C)C)C(=O)N[C@@H](Cc1c[nH]cn1)C(=O)N[C@@H](CO)C(=O)N[C@@H](C)C(=O)N[C@@H](CCCCN)C(=O)N[C@@H](CCCCN)C(=O)N[C@@H](CC(=O)O)C(=O)N[C@@H](CCC(=O)O)C(=O)N[C@@H](CC(C)C)C(=O)O [BP178]
- MIC Xav [1]: 2.5 to 5.0 µM
- cell culturability reduction (Xff strain Temecula [2]): around 5 log
- culturability of cells mixed with the peptide (Xff strain Temecula [2]): dropped abruptly to levels near the detection limit
- MIC Ea (Erwinia amylovora): 2.5 to 5.0 µM
- classification of activity against Xf (discussion) (Xff strain Temecula [3]): highly active
- reduction of cell viability (Xff strain Temecula [3]): around 3 log
- reduction of viability (Xff strain Temecula [3]): around 3 log
- MIC Psa [4]: 2.5 to 5.0 µM
